A mixed list of measured activities; the numbers were collected in NIAID ChemDB.

Common to all: toxicity to cultured cells; cell line: MT-4; read by: MTT; measure: CC50

Rows are shuffled and stem from different studies. CCn is the concentration with n% toxicity to the cells.

SMILES	result
O=[N+]([O-])c1c(-c2ccccc2)c(-c2ccccc2)n(COCCO)c1-c1ccccc1	43 µM
Cc1cn([C@H]2C[C@H](N=[N+]=[N-])[C@@H](CO)O2)c(=O)[nH]c1=O	9.82 µg/mL
C=C(c1ccc(Cl)cc1)c1c(C)c(=O)[nH]c(=O)n1COCc1ccccc1	34.49 µM
CCOP(=O)(OCC)C(N[C@@H](Cc1ccccc1)[C@H](O)CN(CC(C)C)S(=O)(=O)c1ccc(OC)cc1)c1ccc2c(c1)OCO2	13.2 µg/mL
C=C(c1ccc(OC)cc1)c1c(C)c(=O)[nH]c(=O)n1COCc1ccccc1	131 µM
CCOC(=O)c1c([N+](=O)[O-])c(-c2ccccc2)n(COCCO)c1C	>300 µM
Cc1c(C(C)c2ccccc2)n(COCc2ccccc2)c(=O)[nH]c1=O	>357 µM
COc1cc2c(cc1OC)C1=NOC(c3cccs3)C1C2	31.02 µM
N#Cc1c(-c2ccccc2)s[nH]c1=S	34.2 µg/mL
CCc1c(Cc2cc(C)cc(C)c2)nc(SC)[nH]c1=O	>100 µM
CC(C)c1c(Cc2ccccc2)n(COCCOc2ccccc2)c(=O)[nH]c1=O	35 µM
O=C(O)c1ccc(OCc2nc3cc(C(F)(F)F)ccc3n3cccc23)cc1	>100 µM
CCc1c(Cc2cc(OC)cc(OC)c2)[nH]c(=O)[nH]c1=O	>100 µM
CCOC(=O)c1c(Br)c(-c2ccccc2)n(COCCOC(C)=O)c1-c1ccccc1	47 µM
CCOP(=O)(OCC)C(N[C@@H](Cc1ccccc1)[C@H](O)CN(CC(C)C)S(=O)(=O)c1ccc(OC)cc1)c1ccc([N+](=O)[O-])cc1	14.24 µg/mL
O=C(O)CCC(NC(=O)c1ccc(OCc2nc3ccccc3n3cccc23)cc1)C(=O)O	95 µM
COc1ccccc1C(C)c1c(C)c(=O)[nH]c(=O)n1COCc1ccccc1	>329 µM
Cc1cc(C)cc(Cc2c(C(C)C)c(=O)[nH]c(=O)n2COCCOc2ccccc2)c1	35 µM
CSc1nsc(-c2ccccc2)c1C#N	>125 µg/mL
CCOP(=O)(OCC)C(N[C@@H](Cc1ccccc1)[C@@H](O)CN(CC(C)C)S(=O)(=O)c1ccc(OC)cc1)C(C)C	13.68 µg/mL
CC(C)c1c(C(C)c2ccc(F)cc2)n(COCc2ccccc2)c(=O)[nH]c1=O	33.73 µM
CCOC(=O)c1ccc(OCc2nc3cc(C(F)(F)F)ccc3n3cccc23)cc1	>100 µM
CCc1c(Cc2ccccc2)n(COCCOc2ccccc2)c(=O)[nH]c1=O	32 µM
CCOC(=O)CCC(NC(=O)c1ccc(Nc2nc3cc(C(F)(F)F)ccc3n3cccc23)cc1)C(=O)OCC	39 µM
CCOP(=O)(OCC)C(N[C@@H](Cc1ccccc1)[C@H](O)CN(CC(C)C)S(=O)(=O)c1ccc(OC)cc1)C(C)C	11.52 µg/mL
N#Cc1c(SSc2nsc(-c3ccccc3)c2C#N)nsc1-c1ccccc1	52.3 µg/mL
Cc1c(C(C)c2cccc3ccccc23)n(COCc2ccccc2)c(=O)[nH]c1=O	>294 µM
CCOC(=O)c1c([N+](=O)[O-])c(-c2ccccc2)n(COCCOC(C)=O)c1C	169 µM
CCOP(=O)(N[C@@H](Cc1ccccc1)[C@H](O)CN(CC(C)C)S(=O)(=O)c1ccc(OC)cc1)OCC	64.5 µg/mL
CCOC(=O)c1c([N+](=O)[O-])c(-c2ccccc2)n(COCCOC(C)=O)c1-c1ccccc1	96 µM
Cc1ccc(C(C)c2c(C(C)C)c(=O)[nH]c(=O)n2COCc2ccccc2)cc1	33.43 µM
COc1ccc(Nc2nc3cc(C(F)(F)F)ccc3n3cccc23)cc1OC	27 µM
COc1ccc(C2ON=C3c4cc(OC)c(OC)cc4CC32)cc1	125 µM
CC(=O)OCCOCn1c(-c2ccccc2)c(-c2ccccc2)c([N+](=O)[O-])c1-c1ccccc1	>300 µM
COc1cc2c(cc1OC)C1=NOC(c3ccc(F)cc3)C1C2	>125 µM
OCCOCn1c(-c2ccccc2)c(Br)c(-c2ccccc2)c1-c1ccccc1	15 µM
COc1cc(Cc2c(C(C)C)c(=O)[nH]c(=O)n2COCCOc2ccccc2)cc(OC)c1	33 µM
CCOP(=O)(OCC)C(N[C@@H](Cc1ccccc1)[C@@H](O)CN(CC(C)C)S(=O)(=O)c1ccc(OC)cc1)c1ccc2c(c1)OCO2	13.73 µg/mL
COc1cc2c(cc1OC)C1=NOC(c3c(Cl)cccc3Cl)C1C2	53.2 µM
N#Cc1c(N)c(-c2ccccc2)n(COCCO)c1-c1ccccc1	>300 µM
Cc1ccccc1C(C)c1c(C)c(=O)[nH]c(=O)n1COCc1ccccc1	>343 µM
COc1cc2c(cc1OC)C1=NOC(c3ccccc3)C1C2	10.76 µM

A second listing of 5 rows from above:

SMILES | result
Cc1ccccc1C(C)c1c(C)c(=O)[nH]c(=O)n1COCc1ccccc1 | >343 µM
COc1ccc(C2ON=C3c4cc(OC)c(OC)cc4CC32)cc1 | 125 µM
COc1cc2c(cc1OC)C1=NOC(c3cccs3)C1C2 | 31.02 µM
Cc1ccc(C(C)c2c(C(C)C)c(=O)[nH]c(=O)n2COCc2ccccc2)cc1 | 33.43 µM
COc1ccc(Nc2nc3cc(C(F)(F)F)ccc3n3cccc23)cc1OC | 27 µM